Laboratory results as given in patent US11519017B2, “Kit for diagnosing infection with Methicillin-resistant Staphylococcus aureus (MRSA) by detecting magnesium ions” (Bioacts Corporation, priority 2017, dated 2022).

How the values were obtained:
Format in all cases: physicochemical
[1] = Evaluation of magnesium ion sensitivity at concentration of 10 mM or more; conditions: dye 120 μM; for magnesium concentration at which color development starts: magnesium 10 mM to 100 mM
[2] = Evaluation of magnesium ion sensitivity at concentration of less than 10 mM; conditions: for discoloration at magnesium ion concentration of less than 10 mM: MgCl2 up to 8 mM
Procedure: Magnesium chloride was dissolved in deionized water and diluted to 8, 10, 12, 14 and 16 mM, respectively, to prepare specimens. Next, as the dye compounds, the HNB and the compound of Chemical Formula 2 were prepared at a concentration of 240 μM, but the compounds of Chemical Formulas 3 and 4 were prepared to be diluted at a concentration of 120 μM by 50% because the molar absorption coefficient of the compounds was two times higher than that of the control (HNB).
In each row of a 96-well plate, […] of the dye compound was filled, and in each column, […] of a diluted magnesium chloride solution was filled, and then the color changes were observed and absorbance was measured. The final concentrations of magnesium chloride in the 96-well plate were 0, 4, 5, 6, 7, and 8 mM, and the final concentrations of HNB and Chemical Formula 2 were 120 μM, respectively, and the final concentrations of Chemical Formulas 3 and 4 were 60 μM, respectively.

[3] = Evaluation of magnesium ion detection characteristics and pH stability (color development, 96 well plate); conditions: for color developed in the presence of magnesium: MgCl2 solution; for color development (discoloration) in the presence of magnesium ions: MgCl2 solution versus blank, final specimen concentration 120 μM; for color developed in the absence of magnesium ions: blank and pH 4 to 11 buffers
Procedure: 200 mM of a magnesium chloride solution was prepared by dissolving 0.9521 g of magnesium chloride in 50 ml of deionized water.
59.99 mg of sodium phosphate monobasic and 70.98 mg of sodium phosphate dibasic were dissolved in 50 ml of distilled water to prepare 10 mM of a sodium phosphate buffer solution, and then 28.85 ml of a sodium phosphate monobasic solution and 21.15 ml of a sodium phosphate dibasic solution were mixed to prepare a sodium phosphate buffer solution at pH 7. In a similar manner, the two solutions were mixed to prepare sodium phosphate buffer solutions having acidity of pH 4, pH 7, pH 9, and pH 11, respectively.
For determination of color development, the HNB and the candidate substance were prepared at concentrations of 240 μM and used for the test.
Hydroxynaphthalene blue (HNB) and 9 types of water-soluble candidate substances selected by the solubility test were diluted with distilled water to prepare specimens at concentrations of 240 μM, respectively.
It was confirmed whether the candidate substances according to the present invention reacted with magnesium ions to be color-developed (discolored). In addition, pH stability was confirmed according to whether the candidate substances were specifically color-developed by reacting only with magnesium ions regardless of a pH change.
The color development of the control (HNB) and […] of candidate substances was confirmed under conditions of blank, a MgCl2 solution, pH 4, pH 7, pH 9, and pH 11 using a 96 well plate (12×6 holes). Specifically, 100 μl of deionized water (blank) was added in a first row of the plate, 100 μl of the MgCl2 solution was added in a second row thereof, and 100 μl of each of solutions at pH 4, pH 7, pH 9, and pH 11 was added in third to sixth rows thereof using 10 mM of the sodium phosphate buffer solution prepared in step a) above. In columns of the plate, 100 μl of specimens prepared at a concentration of 240 μM were added to 6 rows, respectively, and a total of 36 specimens were screened. The final concentration of the MgCl2 solution contained in each well was 100 mM and the final concentration of the specimen was 120 μM.

| Compound | magnesium concentration at which remarkably developed to cherry red instead of violet [1] | discoloration at magnesium ion concentration of less than 10 mM [2] | magnesium concentration at which developed to dark blue [1] | magnesium concentration at which color development starts [1] | color developed in the presence of magnesium [3] | color development (discoloration) in the presence of magnesium ions [3] | color developed in the absence of magnesium ions [3] | magnesium chloride concentration at which a complementary color was exhibited ([2]; dye final 60 μM, MgCl2 0, 4, 5, 6, 7, 8 mM) | magnesium concentration at which developed to blue violet [1] |
| --- | --- | --- | --- | --- | --- | --- | --- | --- | --- |
| O=[N+]([O-])c1ccc(O)c(N=Nc2cc(S(=O)(=O)O)c3ccccc3c2O)c1 [Chemical Formula 2] | ≥ 100 mM | not discolored |  |  |  |  |  |  |  |
| hydroxynaphthalene blue [HNB, reference compound] |  | not discolored | ≥ 40 mM | ≥ 10 mM |  |  |  |  |  |
| Nc1ccc2c(O)c(N=Nc3ccc([N+](=O)[O-])cc3O)c(S(=O)(=O)O)cc2c1 [Chemical Formula 3] |  |  |  |  | dark blue | developed to a complementary color | orange or violet | 4 mM |  |
| O=[N+]([O-])c1cc(N=Nc2c(S(=O)(=O)O)cc3cc(Nc4ccccc4)ccc3c2O)c(O)c([N+](=O)[O-])c1 [Chemical Formula 4] |  | not discolored |  | 10 mM | dark violet | developed to a complementary color | red |  | about 20 mM |
